# Assay results: patent publication US20070082942A1, “Prevention of hiv-1 infection by inhibition of rho-mediated reorganization and/or content alteration of cell membrane raft” (priority 2003, published 2007)
# Test system: PHA-activated human PBMC
smiles,measurement,value
CC[C@H](C)C(=O)O[C@H]1C[C@@H](C)C=C2C=C[C@H](C)[C@H](CC[C@@H]3C[C@@H](O)CC(=O)O3)[C@H]21 [lovastatin],Cytotoxic effects,no cytotoxic effects
